Anti-infective test results gathered from many reports (values: NIAID ChemDB through PubChem).

Shared fields: growth or infection tests; organism: HIV-1; endpoint: inhibition

An empty or dashed field is not shown. Inhibition is in % at the dose shown (toxicity tests: loss of growth or viability). Neighbouring rows are from separate reports. Two numbers with a dash give a range or band.

smiles,dose,changes,cells,method,conditions,strain or isolate,result
C[C@@H]1CO[C@]2(C[C@@H]1O[C@@H]1O[C@H](CO)[C@@H](O)[C@H](O)[C@H]1O)O[C@H]1C[C@H]3[C@@H]4CC=C5C[C@@H](O[C@@H]6O[C@H](CO)[C@H](O[C@@H]7O[C@H](CO)[C@@H](O)[C@H](O[C@@H]8OC[C@@H](O)C(O)[C@H]8O)[C@H]7O[C@@H]7O[C@H](CO)[C@@H](O)[C@H](O)[C@H]7O)[C@H](O)[C@H]6O)CC[C@]5(C)[C@H]4CC[C@]3(C)[C@H]1[C@@H]2C,30 µM,-,SupT1,luciferase / single cycle,pseudotyped,-,49.17%
O=C(C(=O)N1CCN(C(=O)C2=Nc3ccccc3C2)CC1)c1c[nH]c2cccc(F)c12,10 µM,-,HeLa + HELA CD4+/CCR5,luciferase,-,-,70%
NCC1OC(n2cnc3c(N)ncnc32)C(OP(=O)(O)OCC2OC(n3cnc4c(N)ncnc43)C(OP(=O)(O)OCCOCn3cnc4c(N)ncnc43)C2O)C1O,100 µM,-,SupT1 + Sup-T1,syncytia,-,IIIB,36.2%
Cc1cn(CC(=O)N[C@@H](Cc2ccccc2)C(=O)N(C)c2ccc(F)cc2)c(=O)[nH]c1=O,0.1 µM,-,TZM-gfp,GFP,-,NL4-3,6.383%
Cc1ccc(-c2ccc3c(c2)C=C(C(=O)Nc2ccc(C[N+](C)(C)C4CCOCC4)cc2)CCC3)cc1,1 µM,-,PBMC,p24,-,Du104 CLADE C,100%
O=S(=O)(O)c1ccc(-c2c3nc(c(-c4ccc(S(=O)(=O)O)cc4)c4ccc([nH]4)c(-c4ccc(S(=O)(=O)O)cc4)c4nc(c(-c5ccccc5)c5ccc2[nH]5)C=C4)C=C3)cc1,5 µg/mL,-,MAGI,β-galactosidase,-,IIIB,48%
C[C@@H]1CN(C(=O)c2ccccc2)CCN1C(=O)C(=O)c1c[nH]c2c(C(=O)O)cccc12,10 µM,-,HeLa + HELA CD4+/CCR5,luciferase,-,-,>98%
CC(=O)CCCCCCCCCCCC(=O)O,1 µg/mL,-,CEM,cytopathic effect,-,-,6%
Nc1ccc(S(=O)(=O)N(CC2CCCC2)C[C@@H](O)[C@H](Cc2ccccc2)NC(=O)O[C@H]2CCOC2)cc1N,0.1 µM,-,CEM,p24,-,IIIB,90%
Nc1ccn([C@H]2C=C[C@@H](CO)O2)c(=O)n1,0.01 µM,-,MT-2,RT activity,-,LAV,61%
CC1=NNC(N)=N/C1=C/C(Sc1ccc(Cl)cc1)c1ccc(Cl)cc1Cl,0.35 µM,-,MT-2,-,-,RF,7.8%
O=C(NCCc1ccccc1)Nc1nc2c(Cl)cccc2s1,1 µg/mL,-,MT-4,RT activity,-,-,11%
Nc1ncnc2c1ncn2COCCOP(=O)(O)O[C@@H]1C[C@@H](COP(=O)(O)O[C@@H]2C[C@@H](COP(=O)(O)O[C@@H]3C[C@@H](CO)O[C@H]3n3cnc4c(NCc5ccccc5)ncnc43)O[C@H]2n2cnc3c(N)ncnc32)O[C@H]1n1cnc2c(N)ncnc21,100 µM,-,SupT1 + Sup-T1,p24,-,-,51%
COC(=O)CC(c1ccc(OC)c(OC)c1)N1C(=O)c2ccccc2C1=O,50 µg/mL,-,Macrophage,RT activity,-,JR-FL,58%
O=C(CCCCCCCCCCC(=O)Nc1cc(S(=O)(=O)O)cc2cc(S(=O)(=O)O)cc(O)c12)Nc1cc(S(=O)(=O)O)cc2cc(S(=O)(=O)O)cc(O)c12,20 µg/mL,-,H9,p24,-,-,94%
O=C(O)CCCCCCCCCCCn1cnnn1,10 µg/mL,-,CEM,cytopathic effect,-,RF,65%
O=C(NCCc1ccccc1)Nc1nc2ccc(Cl)cc2s1,100 µg/mL,-,MT-4,RT activity,-,-,96%
O=P(O)(O)OP(=O)(O)OP(=O)(O)OP(=O)(O)O,100 µg/mL,-,H9,RT activity,-,IIIB,30%
CCCCOC(=O)c1ccc(NC(=O)NCCc2ccccc2)cc1,10 µg/mL,-,MT-4,cytopathic effect / XTT,-,-,0%
COc1ccccc1/C=C/C(=O)c1ccccc1O,10 µM,-,TZM-bl,luciferase,-,-,0%
Cc1nnc(N)nc1/C=C/c1ccc(N(C)C)cc1,0.6 µM,-,CEM,cytopathic effect / XTT,-,-,3.38%
CC1(C)[C@@H](O[C@H]2O[C@H](C(=O)O)[C@@H](O)[C@H](O)[C@H]2O[C@@H]2O[C@H](C(=O)O)[C@@H](O)[C@H](O)[C@H]2O)CC[C@]2(C)[C@H]3C(=O)C=C4[C@@H]5C[C@@](C)(C(=O)O)CC[C@]5(C)CC[C@@]4(C)[C@]3(C)CC[C@@H]12,300 µM,-,MT-4,antigen,-,IIIB,68.4%
C=C(C)[C@@H]1CC[C@]2(C(=O)NCCCCCCCC(=O)N[C@@H](CC(C)C)[C@@H](O)CC(=O)O)CC[C@]3(C)[C@H](CC[C@@H]4[C@@]5(C)CC[C@H](O)C(C)(C)[C@@H]5CC[C@]43C)[C@@H]12,10 µM,GP41-A101S,HeLa P4 + HeLa,syncytia,-,LAI,>99%
Nc1cc(S(=O)(=O)O)c2ccccc2c1N,1 µg/mL,-,MOLT-3,syncytia,-,-,30%
CCCCCCCCCCCCCCCC(=O)NCC1CC(OP(=O)(O)OCC2OC(n3cnc4c(N)ncnc43)C(OP(=O)(O)OCC3OC(n4cnc5c(N)ncnc54)C(O)C3O)C2O)C(n2cnc3c(N)ncnc32)O1,100 µM,-,SupT1 + Sup-T1,syncytia,-,IIIB,81%
CN(C(=O)[C@H](Cc1ccccc1)NC(=O)CNC(=O)c1ccccc1)c1ccc(F)cc1,0.1 µM,-,TZM-gfp,GFP,-,NL4-3,12.37%
O=c1oc2cc(O)c(O)cc2c(O)c1-c1coc2c1c(=O)oc1cc(O)c(O)cc12,0.0001 µM,-,MT-4,MTT,-,IIIB,0%
COC(=O)c1cccc2c(C(=O)C(=O)N3CCN(C(=O)c4ccccc4)C(C(C)(C)C)C3)c[nH]c12,10 µM,-,HeLa + HELA CD4+/CCR5,luciferase,-,-,87%
N=C1Sc2ccccc2C2=NCCCN12,4.26 µM,-,PBMC,MTS,-,93BR021,90%
CCNC(=O)CCCCCCCCCC(=O)O,10 µg/mL,-,CEM,cytopathic effect,-,-,0%
CC(C)[C@H](NC(=O)[C@H](CO)NC(=O)[C@H](CS)NC(=O)CCC(=O)NCCCOCCOCCCN)C(=O)N[C@H](C(=O)N[C@@H](CS)C(=O)NCC(=O)O)[C@@H](C)O,0.132 µM,-,PBMC(PHA STIM.) + PBMC,p24,-,BaL,6%
CCCCCCCCCCCCCCCCOP(=O)(OCCO[C@@H]1O[C@H](CO)[C@@H](O)[C@H](O)[C@@H]1O)OC[C@H]1O[C@@H](n2cc(C)c(=O)[nH]c2=O)C[C@@H]1N=[N+]=[N-],0.2 µM,-,CEM,RT activity,22 d,LAV-Bru,0%
Nc1ncnc2c1ncn2[C@@H]1O[C@H](COP(=O)(O)O[C@@H]2[C@H](O)[C@@H](COP(=O)(O)O[C@@H]3[C@H](O)[C@@H](CO)O[C@H]3n3cnc4c(N)ncnc43)O[C@H]2n2cnc3c(N)ncnc32)[C@@H](O)[C@H]1O,300 µM,-,SupT1 + Sup-T1,RT activity,-,-,10%
CCOC(=O)/C=C/c1ccc(OC(=O)CCC(=O)Oc2c(C)c(C)c3c(c2C)CC[C@@](C)(CCC[C@H](C)CCC[C@H](C)CCCC(C)C)O3)cc1,5 µM,-,U1/HIV-1 (TNF-alpha stimulated) + U1,-,-,-,41%
CC1=NNC(N)=N/C1=C\C(Sc1ccc(Cl)cc1)c1cc2ccccc2cc1O,6.33 µM,-,MT-2,-,-,RF,12.77%
CCCCCCCCCCCCCCCC(=O)NCC1OC(n2cnc3c(N)ncnc32)C(OP(=O)(O)OCC2CC(OP(=O)(O)OCC3OC(n4cnc5c(N)ncnc54)C(O)C3O)C(n3cnc4c(N)ncnc43)O2)C1O,100 µM,-,SupT1 + Sup-T1,syncytia,-,IIIB,100%
N#CC1C=Cc2c(ccc3ccccc23)N1C(=O)Sc1ccc(Cl)cc1,50 µM,-,MOLT-3,syncytia,-,IIIB,0%
CC(C)[C@H](NC(=O)[C@H](CO)NC(=O)[C@@H](N)CSSCC(=O)O)C(=O)N[C@H](C(=O)N[C@@H](CSSCC(=O)O)C(=O)NCC(=O)O)[C@@H](C)O,1.32 µM,-,PBMC(PHA STIM.) + PBMC,p24,-,BaL,60%
C[C@H]1[C@H](O)[C@@H](C)/C=C/C=C/C=C/C=C/C=C/C=C/C=C/[C@H](O[C@@H]2O[C@H](C)[C@@H](O)[C@H](N)[C@@H]2O)C[C@@H]2O[C@](O)(C[C@@H](O)C[C@@H](O)CC[C@H](O)[C@@H](O)C[C@@H](O)CC(=O)O[C@H]1C)C[C@H](O)[C@H]2C(=O)O,1.4 µM,-,PBMC,p24 / RT activity,-,YBF30 GROUP N R5 (NSI),90%
COc1ccc(F)c2c(C(=O)C(=O)N3CCN(C(=O)c4ccc(N)cc4)C[C@H]3C)c[nH]c12,10 µM,-,HeLa + HELA CD4+/CCR5,luciferase,-,-,>98%
O=C(NCCc1ccccc1)Nc1nc2ccc(F)cc2s1,100 µg/mL,-,MT-4,cytopathic effect / XTT,-,-,72–100%
CC(=O)N1C(=O)CC(=O)N(c2nnc(C)c(/C=C/c3ccc(N(C)C)cc3)n2)C1=S,0.317 µM,-,CEM,cytopathic effect / XTT,-,-,3.66%
C[C@@H]1CN(C(=O)c2ccccc2)CCN1C(=O)C(=O)c1c[nH]c2c(Br)ccc(F)c12,10 µM,-,HeLa + HELA CD4+/CCR5,luciferase,-,-,>98%
Cc1cn(CC(=O)N[C@@H](Cc2ccccc2)C(=O)N(C)c2cccc(C(F)(F)F)c2)c(=O)[nH]c1=O,0.1 µM,-,TZM-gfp,GFP,-,NL4-3,29.47%
CCN(CC)C(=S)S,0.00000075 µg/mL,-,PBL,RT activity,-,LAV,67%
COC(=O)CC(c1ccc(OC)c(OC)c1)N1C(=O)c2ccc(N)cc2C1=O,50 µg/mL,-,Macrophage,RT activity,-,JR-FL,81%
Cc1nnc(N2C(=O)/C(=C/c3ccc(Cl)cc3)N=C2c2ccccc2)nc1/C=C/c1ccc(N(C)C)cc1,20 µM,-,CEM,cytopathic effect / XTT,-,-,58.08%
CN(C(=O)[C@H](Cc1ccccc1)NC(=O)CNC(=O)c1ccccc1)c1cccc(C(F)(F)F)c1,0.1 µM,-,TZM-gfp,GFP,-,NL4-3,21.35%
N=C1Sc2ccccc2C2=NCCCN12,0.53 µM,-,PBMC,β-galactosidase,-,RU132,90%
O=C(O)CCC(CCC(=O)O)(CCC(=O)O)NC(=O)CCC(CCC(=O)NC(CCC(=O)O)(CCC(=O)O)CCC(=O)O)(CCC(=O)NC(CCC(=O)O)(CCC(=O)O)CCC(=O)O)NC(=O)CCCOC(=O)C1(C(=O)OCCCC(=O)NC(CCC(=O)NC(CCC(=O)O)(CCC(=O)O)CCC(=O)O)(CCC(=O)NC(CCC(=O)O)(CCC(=O)O)CCC(=O)O)CCC(=O)NC(CCC(=O)O)(CCC(=O)O)CCC(=O)O)C2c3cc4c5c6c3-c3c(cc7c8c3C6C3c6c-5c(cc5ccc9cc(c-8c3c9c65)C7)C4)C21,0.7 µM,3TC-resistant (RT M184V),PBMC,cytopathic effect,-,-,90%
CCCCOC(=O)N1c2ccc3ccccc3c2C=CC1C#N,50 µM,-,MOLT-3,syncytia,-,IIIB,49.5%
CCCCCCCCCC(=O)NCCC(=O)O,1 µg/mL,-,CEM,cytopathic effect,-,-,4%
CCOc1ccccc1CCNC(=S)Nc1nccs1,1 µg/mL,-,MT-4,cytopathic effect / XTT,-,-,96%
Cc1cn([C@H]2C[C@H](N=[N+]=[N-])[C@@H](COP(=O)(O)OCCO[C@H]3O[C@H](CO)[C@@H](O)[C@H](O)[C@@H]3O)O2)c(=O)[nH]c1=O,25 µM,-,CEM,RT activity,7 d,LAV-Bru,94%
CCCCCCCC(=O)NCCCCC(=O)O,10 µg/mL,-,CEM,cytopathic effect,-,-,24%
CC(=O)N1C(=O)[C@@H](Cc2ccc(Cl)cc2)NC1=S,100 µg/mL,-,MT-4,cytopathic effect / XTT,-,-,18%
Cc1c2ccnc(Cl)c2cc2c3cn(C)ccc-3nc12,0.1 µM,-,PBMC,p24 / ELISA,-,-,0%
O=C(C(=O)N1CCN(C(=O)c2ccccc2SCc2ccccc2)CC1)c1c[nH]c2cccc(Cl)c12,10 µM,-,HeLa + HELA CD4+/CCR5,luciferase,-,-,89%
CC1/C=C/C=C/C=C/C=C/C=C/C=C/C=C/C(OC2OC(C)C(O)C(N)C2O)CC(O)C(C(=O)O)C(O)CC(=O)CC(O)CC(O)CC(O)CC(=O)CCCC(=O)CC(=O)OC1,10 µg/mL,-,H9,p24 / antigen,-,IIIB,57%
C=C(C)OC(=O)N1C=CC(C#N)C(C(C)=O)=C1,50 µM,-,MOLT-3,syncytia,-,IIIB,0%
O=C(NCc1ccc(F)cc1)c1ncc2cccnc2c1O,6 µM,-,MT-4,p24,50% human serum,-,>95%
Cc1cccc(C)c1OCC(=O)N[C@@H](Cc1ccccc1)[C@H](O)[C@@H](O)[C@@H]1CCCN1C(=O)COc1c(C)cccc1C,0.0000001 µM,-,MT-2,MTT,-,IIIB,13%
O=C(NCCc1ccccc1)Nc1nc2ccccc2s1,100 µg/mL,-,MT-4,cytopathic effect / XTT,-,-,41–100%
Nc1ncnc2c1ncn2COCCOP(=O)(O)O,300 µM,-,SupT1 + Sup-T1,syncytia,-,-,87%
CCCOC(=O)N1c2ccc3ccccc3c2C=CC1C#N,50 µM,-,MOLT-3,syncytia,-,IIIB,74.3%
CC(C)c1cnn2c(NCc3ccc(-c4ccccn4)cc3)nc(N[C@H](CO)C(C)O)nc12,0.05 µM,-,OM-10.1,trypan blue,-,-,50%
NC(=O)NO,200 µM,-,U-937,RT activity,-,-,67.77%
O=C1NC(=S)N[C@@H]1c1ccc(-c2ccccc2)cc1,10 µg/mL,-,MT-4,cytopathic effect / XTT,-,-,0%
CC(C)(C)c1ccc(C(=O)N2CCN(C(=O)C(=O)c3c[nH]c4ccccc34)CC2)cc1,10 µM,-,MT-2,RT activity,-,BRU,47.9%

The last 5 rows once more:

smiles,dose,changes,cells,method,conditions,strain or isolate,result
CCCOC(=O)N1c2ccc3ccccc3c2C=CC1C#N,50 µM,-,MOLT-3,syncytia,-,IIIB,74.3%
CC(C)c1cnn2c(NCc3ccc(-c4ccccn4)cc3)nc(N[C@H](CO)C(C)O)nc12,0.05 µM,-,OM-10.1,trypan blue,-,-,50%
NC(=O)NO,200 µM,-,U-937,RT activity,-,-,67.77%
O=C1NC(=S)N[C@@H]1c1ccc(-c2ccccc2)cc1,10 µg/mL,-,MT-4,cytopathic effect / XTT,-,-,0%
CC(C)(C)c1ccc(C(=O)N2CCN(C(=O)C(=O)c3c[nH]c4ccccc34)CC2)cc1,10 µM,-,MT-2,RT activity,-,BRU,47.9%